A mixed list of measured activities; the numbers were collected in NIAID ChemDB.

All rows: enzyme or target tests; organism: Toxoplasma gondii; protein: DHFR; measure: IC50

ICn is the concentration giving n% inhibition. Conditions beyond the fields shown may differ between rows.

| structure | result |
|---|---|
| Cc1cc2nc(N)nc(N)c2cc1C | 7.7 µM |
| CC(C)c1nc2nc(N)nc(N)c2nc1C(C)C | 0.033 µM |
| Nc1ccc(S(=O)(=O)NC(=O)c2ccccc2)cc1 | 15 µM |
| CCCCCCc1nc2nc(N)nc(N)c2nc1CCCCCC | 46 µM |
| COc1cc(N(C)Cc2csc3nc(N)nc(N)c23)cc(OC)c1OC | >10 µM |
| CC1(C)N=C(N)N=C(N)N1c1ccc(-c2ccc3cc(Cl)ccc3c2)cc1 | 1.3 µM |
| Cc1nnc(NS(=O)(=O)c2ccc(N)cc2)s1 | 7.9 µM |
| Nc1nc(N)c2nc(CC3CCCCC3)c(CC3CCCCC3)nc2n1 | 0.46 µM |
| Nc1nc(N)c2nc(CC3CCCCC3)c(CC3CCCCC3)nc2n1 | 0.46 µM |
| O=C1C(CCS(=O)c2ccccc2)C(=O)N(c2ccccc2)N1c1ccccc1 | 1000 µM |
| COc1cc(NCc2csc3nc(N)nc(N)c23)cc(OC)c1OC | >10 µM |
| Nc1nc(N)c2nc(CCCc3ccccc3)c(CCCc3ccccc3)nc2n1 | 1 µM |
| COc1ncnc(NS(=O)(=O)c2ccc(N)cc2)c1OC | 110 µM |
| Nc1nc(N)c2cc(Cl)ccc2n1 | 14 µM |
| Nc1ccc(S(=O)(=O)Nc2ccccn2)cc1 | 4.6 µM |

2 of the rows above, restated:

| structure | result |
|---|---|
| COc1cc(NCc2csc3nc(N)nc(N)c23)cc(OC)c1OC | >10 µM |
| COc1cc(N(C)Cc2csc3nc(N)nc(N)c23)cc(OC)c1OC | >10 µM |